The target of assay [1] is T1, Gag-Pol polyprotein (Human immunodeficiency virus type 1 group M subtype B (isolate HXB2)(HIV-1), UniProt P04585). As to the kind of experiment: (§1) PHENOSENSE assay: The PhenoSense report form includes drug resistance information for all of the approved nucleoside reverse transcriptase inhibitors (NRTIs), nonnucleoside reverse transcriptase inhibitors (NNRTIs), and protease inhibitors (PIs).

The target of assay [2] is T1, Gag-Pol polyprotein. The assay is described as §1. This is another data set of the same source.
Assay [3] has as its target T1, Gag-Pol polyprotein. The assay is described as §1. The source holds these as a separate data set.
In assay [4] the target is T1, Gag-Pol polyprotein. The assay is described as §1. The source holds these as a separate data set.
The target of assay [5] is T1, Gag-Pol polyprotein. Described as §1. The source holds these as a separate data set.
Assay [6] addresses T1, Gag-Pol polyprotein. The assay is described as §1. The source holds these as a separate data set.

Molecules are shown by their SMILES.

Regarding `CC(C)OC(=O)OCOP(=O)(CO[C@H](C)Cn1cnc2c(N)ncnc21)OCOC(=O)OC(C)C`, the IC50 in assay [1] is 6.52 µM; in assay [2] it was above 8.51 µM; in assay [3] it was 5.39 µM; in assay [4], 1.04 µM; in assay [5] it was above 6.49 µM; in assay [6] it was above 6.47 µM.
On to `CCCCCCCCCCCCCCCCOCCCOP(=O)(O)CO[C@H](C)Cn1cnc2c(N)ncnc21` [TENOFOVIR EXALIDEX], for which the IC50 in assay [5] amounted to 0.005 µM; in assay [6], 0.009 µM.

Source of the values: ChEMBL document CHEMBL5725298 (2017).
